Measured values published in PMC10892935 (Viruses, 2024).
Some compounds share one wording; it may come from a single statement. For some assays here: The index is printed as in the source, without its formula.

How the values were obtained:
FHV-1 = test: Cytopathic effect (CPE) inhibition assay; details: selectivity index, CRFK cells
FHV-1 virus particles = test: Transmission electron microscopy of drug-treated virus particles; set-up: species or system feline herpesvirus-1 (FHV-1); details: virus incubated in drug solution 37 °C 2 h, TEM

Row | Compound | SI (FHV-1) | Structural integrity of virus particles (FHV-1 virus particles)
1 | O=C1O[C@H]2[C@@H]3OC(=O)c4cc(O)c(O)c(O)c4-c4c(O)c(O)c5oc(=O)c6c(c(O)c(O)c7oc(=O)c4c5c76)-c4c(cc(O)c(O)c4O)C(=O)OC[C@H]3OC(O)[C@@H]2OC(=O)c2cc(O)c(O)c(O)c2-c2c1cc(O)c(O)c2O (mixture of isomers) [Punicalagin] | 1.52 | do not disrupt the structural integrity of virus particles
2 | O=C1OC[C@H]2OC(O)[C@H](O)[C@@H](O)[C@@H]2OC(=O)c2cc(O)c(O)c(O)c2-c2c(O)c(O)c3oc(=O)c4c(c(O)c(O)c5oc(=O)c2c3c54)-c2c1cc(O)c(O)c2O (mixture of isomers) [Punicalin] | 34.77 | do not disrupt the structural integrity of virus particles
3 | CC1OC(OC2CCC3(C)C(CCC4(C)C3C=CC3=C5CC(C)(C)CCC5(CO)C(O)CC34C)C2(C)CO)C(O)C(OC2OC(CO)C(O)C(O)C2O)C1O (centres unmarked) [Saikosaponin B2] | – | do not disrupt the structural integrity of virus particles
